Test results taken from patent publication US20110189730 (published 2011).
The exact form of at least one protein or probe is not confirmed. Tags and fusion partners may be left off the protein sequences shown.

Molecular target: T1, Sin Nombre hantavirus nucleocapsid protein (N) (Sin Nombre hantavirus) (UniProt Q89462)
T1 sequence (limits assumed): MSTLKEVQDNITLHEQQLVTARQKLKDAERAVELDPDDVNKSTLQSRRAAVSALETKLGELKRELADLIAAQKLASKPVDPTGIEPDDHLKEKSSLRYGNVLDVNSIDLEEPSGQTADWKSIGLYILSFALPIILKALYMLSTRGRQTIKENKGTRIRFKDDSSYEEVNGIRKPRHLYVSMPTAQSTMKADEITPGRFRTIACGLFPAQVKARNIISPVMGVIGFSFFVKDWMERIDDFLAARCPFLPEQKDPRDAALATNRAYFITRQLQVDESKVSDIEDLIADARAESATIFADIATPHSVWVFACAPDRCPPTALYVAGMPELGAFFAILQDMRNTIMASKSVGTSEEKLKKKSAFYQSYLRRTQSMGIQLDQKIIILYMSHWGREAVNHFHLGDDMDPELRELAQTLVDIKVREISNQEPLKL
Test: filter binding
Conditions: 5' m7G cap; purified recombinant protein; protein details: C-terminal octahistidine tag, expressed in E. coli; label: 32P-CTP; only the motif is given; variant of m7GUCUCC capped hexamer

GUCUC [m7GUCUC capped pentamer]
binding result: binds
